A mixed list of measured activities; the numbers were collected in NIAID ChemDB.

Common to all: tests in culture; organism: Staphylococcus aureus; read-out: MIC

Rows are shuffled and stem from different studies.

structure	strain	result
CC(C)C(=S)NC[C@H]1CN(c2ccc3c(c2)-n2cccc2COC3)C(=O)O1	ATCC 49951 (SMITH)	4 µg/mL
C[C@@H](CO)Nc1cc2c(cc1F)c(=O)c(C(=O)O)cn2C1CC1	ATCC 6538P	6.25 µg/mL
Cc1c(NCCO)c(F)cc2c(=O)c(C(=O)O)cn(-c3cc(N)c(F)cc3F)c12	MR8736 (methicillin-resistant)	8 µg/mL
O=C1O[C@@H](COc2ccon2)CN1c1ccc(N2CCC(O)CC2)c(F)c1	078 (oxford)	4 µg/mL
CC[C@H]1OC(=O)[C@@](C)(F)C(=O)[C@H](C)[C@@H](O[C@@H]2O[C@H](C)C[C@H](N(C)C)[C@H]2O)[C@@]2(C)C[C@@H](C)C(=NC(C)=O)[C@H](C)[C@@H](OC/C(=N\OCc3ccc(-c4ncccn4)s3)CO2)[C@]1(C)O	29213 (erythromycin A-susceptible)	0.25 µg/mL
CC(C)OC(=S)NC[C@H]1CN(c2ccc3c(c2)-n2cccc2COC3)C(=O)O1	ATCC 29213 (MSSA)	>32 µg/mL
CC[C@H]1OC(=O)[C@H](C)C(=O)[C@H](C)[C@@H](O[C@@H]2O[C@H](C)C[C@H](N(C)C)[C@H]2O)[C@@]2(C)C[C@@H](C)C(=NC(C)=O)[C@H](C)[C@@H](OC/C(=N\OCc3ccc(-c4cccc(N)n4)s3)CO2)[C@]1(C)O	33591 (erythromycin methicillin-resistant)	16 µg/mL
O=C(O)c1cn(C2CC2)c2cc(NCCN3CCCCC3)c(F)cc2c1=O	ATCC 6538P	>100 µg/mL
CC[C@H]1OC(=O)[C@H](C)C(=O)[C@H](C)[C@@H](O[C@@H]2O[C@H](C)C[C@H](N(C)C)[C@H]2O)[C@@]2(C)C[C@@H](C)C(=NC(C)=O)[C@H](C)C(OC/C(=C\C=C\c3ccc([N+](=O)[O-])cc3)CO2)[C@]1(C)O	27660 (erythromycin-resistant)	0.25 µg/mL
CC(C)NCCNc1cc2c(cc1F)c(=O)c(C(=O)O)cn2C1CC1	ATCC 6538P	>100 µg/mL
O=C1O[C@@H](COc2ccon2)CN1c1ccc(-n2cnc(CO)c2)c(F)c1	078 (oxford)	2 µg/mL
C=CC(=O)NC[C@H]1CN(c2ccc3c(c2)-n2cccc2COC3)C(=O)O1	ATCC 29213 (MSSA)	2 µg/mL
CCCCN(CCCC)CCNc1cc2c(cc1F)c(=O)c(C(=O)O)cn2C1CC1	ATCC 6538P	100 µg/mL
O=C(NC[C@H]1CN(c2ccc3c(c2)-n2cccc2COC3)C(=O)O1)OCc1ccccc1	ATCC 49951 (SMITH)	>32 µg/mL
CC[C@H]1OC(=O)[C@@](C)(F)C(=O)[C@H](C)[C@@H](O[C@@H]2O[C@H](C)C[C@H](N(C)C)[C@H]2O)[C@@]2(C)C[C@@H](C)C(=N)[C@H](C)[C@@H](OC/C(=N\OCc3ccc(-c4nccs4)nc3)CO2)[C@]1(C)O	29213 (erythromycin A-susceptible)	0.5 µg/mL
Nc1cn(-c2ccc(N3C[C@H](COc4ccccn4)OC3=O)cc2F)cn1	004 (methicillin quinolone-resistant)	2 µg/mL
O=C(O)c1cn(C2CC2)c2cc(NCCN3CCCC3)c(F)cc2c1=O	ATCC 6538P	1.56 µg/mL
Cc1cn(-c2ccc(N3C[C@H](CSC4C=NN=N4)OC3=O)cc2F)cn1	122 (novobiocin-resistant)	8 µg/mL
CC[C@H]1OC(=O)[C@H](C)C(=O)[C@H](C)[C@@H](O[C@@H]2O[C@H](C)C[C@H](N(C)C)[C@H]2O)[C@@]2(C)C[C@@H](C)C(=NC(C)=O)[C@H](C)C(OC/C(=C\C=C\c3ccccc3)CO2)[C@]1(C)O	27660 (erythromycin-resistant)	0.5 µg/mL
NCCCCCCCCNc1cc2c(cc1F)c(=O)c(C(=O)O)cn2C1CC1	ATCC 6538P	>100 µg/mL
CCCCC(=S)NC[C@H]1CN(c2ccc3c(c2)-n2cccc2COC3)C(=O)O1	ATCC 49951 (SMITH)	16 µg/mL
CC[C@H]1OC(=O)[C@H](C)C(=O)[C@H](C)[C@@H](O[C@@H]2O[C@H](C)C[C@H](N(C)C)[C@H]2O)[C@@]2(C)C[C@@H](C)C(=NC(C)=O)[C@H](C)C(OC/C(=C\C#Cc3ccc(N)cc3)CO2)[C@]1(C)O	29213 (erythromycin-susceptible)	0.13 µg/mL
CNc1c(F)cc2c(=O)c(C(=O)O)cn(-c3cc(N)c(F)cc3F)c2c1C	MR8736 (methicillin-resistant)	1 µg/mL
CC[C@H]1OC(=O)[C@H](C)C(=O)[C@H](C)[C@@H](O[C@@H]2O[C@H](C)C[C@H](N(C)C)[C@H]2O)[C@@]2(C)C[C@@H](C)C(=NC(C)=O)[C@H](C)[C@@H](OC/C(=N\OCc3ccc(C(N)=O)s3)CO2)[C@]1(C)O	33591 (erythromycin methicillin-resistant)	>64 µg/mL
Cc1c(NC2CC2)c(F)cc2c(=O)c(C(=O)O)cn(-c3cc(N)c(F)cc3F)c12	209P	0.015 µg/mL
CC[C@H]1OC(=O)[C@H](C)C(=O)[C@H](C)[C@@H](O[C@@H]2O[C@H](C)C[C@H](N(C)C)[C@H]2O)[C@@]2(C)C[C@@H](C)C(=NC(C)=O)[C@H](C)C(OC/C(=C\C=C\c3cccc([N+](=O)[O-])c3)CO2)[C@]1(C)O	27660 (erythromycin-resistant)	0.25 µg/mL
CC[C@H]1OC(=O)[C@@](C)(F)C(=O)[C@H](C)[C@@H](O[C@@H]2O[C@H](C)C[C@H](N(C)C)[C@H]2O)[C@@]2(C)C[C@@H](C)C(=NC(C)=O)[C@H](C)[C@@H](OC/C(=N\OCc3ccc4cnn(C(N)=O)c4c3)CO2)[C@]1(C)O	33591 (erythromycin methicillin-resistant)	>64 µg/mL

For reference, 2 entries again:

| structure | strain | result |
|---|---|---|
| O=C1O[C@@H](COc2ccon2)CN1c1ccc(-n2cnc(CO)c2)c(F)c1 | 078 (oxford) | 2 µg/mL |
| C=CC(=O)NC[C@H]1CN(c2ccc3c(c2)-n2cccc2COC3)C(=O)O1 | ATCC 29213 (MSSA) | 2 µg/mL |